These results are taken from paper PMC11542851 (PLOS Pathogens, 2024).

The labels stand for the following.
B1: C68.185 (antibody, V domains shown)
VH: QVQLVQSGAEVKKPGASVKVSCKTSGYAFTDHYVHWVRQAPGQGLEWMGVINPSGVGTSYAQMFQDRVTLTSDTSTSTVYMVLSSLRSEDTAVYYCVRDDYGVPARGWFDPWGQGTLVTVSS
VL: EVVLTQSPATLSLSPGERATLSCRASQSISSYLAWYQQKPGQAPRLLIYDASNRATGVPARFSGSGSGADFTLTISSLEAEDFALYYCQHRSNWLYTFGQGTKLEIK
B2: C68.327 (antibody, V domains shown)
VH: EVQLLESGGGLVQPGGSLRLSCAASGFTFGSYAMSWVRQAPGKGLEWVSAISGSGGSTYYADSVKGRFTISRDNSKNTLYLQMNSLRAEDTAVYNCAKDLWDGFHWFDSWGQGTLVTVSS
VL: DIQMTQSPSSVSASVGDRVTITCRASQGISSWLAWYQQKPGKAPNLLIYSASSLQSGVPSRFSGSGSGTDFTLTISSLQPEDFATYYCQQANSFPITFGQGTRLEIK
B3: C68.83 (antibody, V domains shown)
VH: EVQLVESGGGVVQPGRSLRLSCAASGFIFSSYGMHWVRQAPGKGLEWVAVIWYDGSNKYYADSVKGRFTISRDNSKNTLYLQMNSLRAEDTAVYYCARDDPEVGCSGGSCYYYYDMDVWGQGTTVTVSS
VL: SYELTQPPSVSVSPGQTARITCSGDALPKQHAHWYQQKPGQAPVLVIYKDIERPSGIPERFSGSSSGTTVTLTISGVQAEDEADYYCQSADSSVTYVVFGGGTKLTVL
B4: C68.88 (antibody, V domains shown)
VH: QVQLQESGPGLVKPSETLSLTCSVSGGPISSSRYYWGWIRQSPGEGLEWIGTIYYSGSTYYNPSFKSRVTISVDTSKNQFSLKLSSVTAADTAVYYCATRCYDFWSGYYNREMLWFDCWGQGTLVTVSS
VL: NFMLTQPHSVSESPGKTVTISCTRSSGSIASNYVQWYQQRPGSSPTTVIYENNQTPSGVPDRFSGSIDSSSNSASLTISGLKTEDEADYYCQSYDSSVVVFGGGTKLTVL
B5: C68.121 (antibody, V domains shown)
VH: EVQLVESGGGLVKPGGSLRLSCAASGFTFSDYYMTWIRQAPGKGLEWVSKITNSNSYTHYADSVKGRFTISRDNAKNSLFLHMNSLRAEDTAVYYCARAIWIGYPDDYYMDVWGKGTTVTVSS
VL: SYELTQPPSVSVSPGQTARITCSGDTLPNQYVYWYQQKPGQAPVLLIYKDTERPSGIPERVSGSTSGTTVTLTISGVQAEDEADYYCQSADSSGTSFGGGTKLTVL
B6: C68.200 (antibody, V domains shown)
VH: EVQLLESGGGLVQPGGSLRLSCTASGFTFSRYALTWVRQAPGKGLEWVSAISGSGGNTNYADSVKGRFTISRDNSKNTLYLQMNSLRAEDTAVYYCAKSPRYNNDYFDFWGQGTLVTVSS
VL: DIQLTQSPSTLSASVGDRVTITCRASQSISSWLAWYQQKPGKAPKLLIYDASSLESGVPSRFSGSGSGTEFTLTISSLQPDDFATYYCQQYNTFITFGHGTRLEIK
B7: C68.203 (antibody, V domains shown)
VH: EVQLLESGGGLVQPGGSLRLSCTASGFTFSRYALTWVRQAPGKGLECVSAFSGSGDSTYYADSVKGRFTISRDNSKNTLYLQMNSLRAEDTAVYYCAKSPRYNSDYFDFWGQGTLVTVSS
VL: DIQLTQSPSTLSASVGDRVTITCRASQSISSWLAWYQQKPGKAPKLLIYDASSLESGVPSRFSGSGSGTEFTLTISSLQPDDFATYYCQQYNSFITFGQGTRLEIK
B8: C68.175 (antibody, V domains shown)
VH: EVQLLESGGGLVQPGGSLRLSCAASGFTFSSYAMSWVRQAPGKGLEWVSGISGSGGSTYYADSVKGRFTISRDNSKNTLHLQMNSLRAEDTAVYYCAKGSRWNPDYFDYWGQGTLVTVSS
VL: not shown
B9: C68.348 (antibody, V domains shown)
VH: QVQLQESGPRLVKSSGTLSLTCAVSGGSISSSKWWSWVRQPPGKGLEWIGEVYHGGSTNYNPSLKSRVTISVDKAKNQFSLKLSSVTAADSAVYYCASLDSAAVFDYWGQGTLVTVSS
VL: QSALTQPASVSGSPGQSITISCTGTSSDVGRFNYVSWYQQHPGKAPKLLIYDVSNRPSGVSNRFSGSKSGNTASLTISGLQAEDEADYYCNSYTSSSTLYVFGTGTKVTVL
B10: C68.239 (antibody, V domains shown)
VH: EVQLLESGGGLVQPGGSLRLSCAASGFTFSSYAMSWVRQAPGKGLEWVSAISGGGDNTYYADSVKGRFTISRDNSKNTLYLQMNSLRAEDTAVYFCAKNPITVVPAAWDRGYFDLWGRGTLVTVSS
VL: SYELTQPPSVSVAPRKTARITCGGNNIGSYSVHWYQQRPGQAPVLVVHDDSDRPSGIPERFSGSNSGNTATLTISRVEAGDEADYYCQVWDSSSDHRGVFGGGTKLTVL
B11: C68.183 (antibody, V domains shown)
VH: EVQLLESGGGLVQPGGSLRLSCVASGFTFRNFAMSWVRQAPGKGLEWVSAISGSGDSTYYADSVKGRFTISRDNSKNTLYLQVNSLRVEDTAIYYCAKGSRGSTDYFDSWGQGTLVTVSS
VL: not shown

The first experiment deals with T1, SARS-CoV-1 recombinant spike protein (trimer), CUHK-W1 strain (SARS-CoV-1 CUHK-W1, UniProt P59594, strain).
T1 construct: source: bought: Acro Biosystems
The experiment is described as follows: ELISA. A general note: An ELISA detects its analyte on a solid surface through an enzyme-linked reagent.
On to B1, for which the binding result is “binds”.

In the case of B2, the binding result is listed as “binds”.

For B3, the binding result is listed as “binds”.

On to B4, for which the binding result was “binds”.

For the molecule B5, the binding result is “binds”.

For the molecule B6, the binding result is given as “binds”.

For the molecule B7, the binding result is recorded as “binds”.

B8: the binding result is “binds”.

B9: the binding result is “binds”.

For B10, the binding result was “binds”.

B11: the binding result is reported as “binds”.

A further experiment concerns the target SARS-CoV-2 Wuhan-Hu-1 RBD, yeast-displayed (SARS-CoV-2 Wuhan-Hu-1, UniProt P0DTC2). The experiment is described as follows: flow cytometry on cells. (In general: A flow cytometer gives signals particle by particle.)
For the molecule B4, the binding result was “binds”.

Take B10: the binding result was “binds”.
